Values quoted from earlier work in PubChem BioAssay AID977610.
pKi: −log10 of the molar value.

Legend:
glutamine synthetase = assay: PubChem AID 977610; settings: PDB protein-ligand complexes, literature Ki; protein: glutamine synthetase; PDB entry 1FPY
[1] = biological target: Lp1NTPDase from Legionella pneumophila; assay: PubChem AID 977610; settings: PDB protein-ligand complexes, literature Ki; protein: Lp1NTPDase from Legionella pneumophila; PDB entry 3AAQ

Row | SMILES | pKi (glutamine synthetase) | pKi [1]
1 | CP(=O)(O)CC[C@H](N)C(=O)O | 6.00 | –
2 | CCN(CC)c1ncnc2c1ncn2[C@@H]1O[C@H](COP(=O)(O)OP(=O)(O)C(Br)(Br)P(=O)(O)O)[C@@H](O)[C@H]1O | – | 3.30
